The record followed here is patent US12594292B2, “Antiviral prodrugs, intermediate-and long-acting formulations and methods” (priority 2022, dated 2026).

The nature of this data set: 3 month (105 day) study of monthly IM injections of ODE-Bn-TFV in formulation F3 in rats. The settings on record: 3 monthly IM doses at 0, 30 and 60 days.

On to “Octadecyloxyethyl benzyl tenofovir [ODE-Bn-TFV]”, for which the “time therapeutic levels were maintained” value worked out at 105 days.
